Experimental data from patent publication US11141410B2 (MERCK SHARP & DOHME CORP., priority 2015, dated 2021).
pIC50: −log10 of the molar value.

Chains of the proteins cited; added tags and fusions are not shown. Residues count along the entry.
UniProt Q2G060, 1-351: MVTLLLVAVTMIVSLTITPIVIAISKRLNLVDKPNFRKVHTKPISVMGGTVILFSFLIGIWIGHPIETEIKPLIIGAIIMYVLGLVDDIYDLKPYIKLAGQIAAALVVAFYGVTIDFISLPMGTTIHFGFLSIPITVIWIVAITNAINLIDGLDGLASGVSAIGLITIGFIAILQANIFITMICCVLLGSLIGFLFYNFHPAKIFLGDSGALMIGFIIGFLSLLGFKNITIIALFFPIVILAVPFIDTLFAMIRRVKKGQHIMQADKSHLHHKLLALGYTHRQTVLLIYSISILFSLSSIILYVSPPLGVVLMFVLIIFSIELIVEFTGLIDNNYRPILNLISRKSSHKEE

Tests used:
MRSA COL (MB5393) = experiment: TarO Inhibitor/β-Lactam Synergy Assay (growth, OD600); type: cell-based, Staphylococcus aureus; conditions: for MITC95 TarO inhibitor alone; Bacteria: SA_MB5393: >200 μM = 95% growth inhibition not achieved, 20 hours at 37° C.; for MITC95 TarO inhibitor + 4 μg/mL IPM; Bacteria: SA_MB5393: in combination with 4 μg/mL imipenem (IPM); for MITC95 TarO inhibitor + 8 μg/mL DCX; Bacteria: SA_MB5393: in combination with 8 μg/mL dicloxacillin (DCX)
TarO = TarO (Staphylococcus aureus, UniProt Q2G060); experiment: TarO Biochemical Enzymatic Assay (LC-MS end point, C55-PP-GlcNAc (LIPID III) production); conditions: read-out: TARO inhibitor IC50; TarO membrane preparation derived from MRSA COL

Row | Compound | MITC95 TarO inhibitor alone; Bacteria: SA_MB5393 (MRSA COL (MB5393)) [µM] | MITC95 TarO inhibitor + 4 μg/mL IPM; Bacteria: SA_MB5393 (MRSA COL (MB5393)) [µM] | MITC95 TarO inhibitor + 8 μg/mL DCX; Bacteria: SA_MB5393 (MRSA COL (MB5393)) [µM] | pIC50 (TarO)
1 | CCOc1cc(C(F)(F)F)cc([C@H]2OC(=O)N(C(=O)NCc3cccc4cncnc34)[C@H]2C)n1 | >200 | 0.19 | 0.72 | 8.00
2 | C=CCOc1cc(C(F)(F)F)cc([C@H]2OC(=O)N(C(=O)NCc3cncc4ccccc34)[C@H]2C)n1 | >200 | 0.20 | 0.20 | 7.22
3 | COc1ccccc1CNC(=O)N1C(=O)O[C@H](c2cc(C(F)(F)F)cc(C(F)(F)F)c2)[C@@H]1CO | >200 | 0.03 | 0.13 | 6.70
